Anti-infective test results gathered from many reports (values: NIAID ChemDB through PubChem).

Shared fields: growth or infection tests; agent: HIV-1; cells: U-937; measure: EC50

Neighbouring rows are from separate reports. Blank or dashed fields: not listed here. ECn is the concentration giving n% inhibition of infection, replication or growth.

SMILES,strain or isolate,method,conditions,result
Nc1ccn([C@H]2CC[C@@H](CO)O2)c(=O)n1,IIIB,-,-,0.0015 µM
Cc1ccnc2c1NC(=O)c1cccnc1N2C1CC1,IIIB,cytopathic effect / XTT,-,0.3 µM
CC[C@@H](C(=O)[C@@H](C)[C@@H](O)[C@H](C)CCc1ccc(C)c(O)c1C(=O)O)[C@H]1O[C@](CC)([C@H]2CC[C@](O)(CC)[C@H](C)O2)C[C@@H]1C,IIIB,RT activity,-,0.2 µg/mL
Nc1nc(=O)n([C@H]2CO[C@@H](CO)S2)cc1F,IIIB,p24,-,0.4 µM
Nc1ccn([C@H]2CC[C@@H](CO)O2)c(=O)n1,LAV-1,virus yield,-,<0.001 µM
Nc1nc(=O)n([C@@H]2CC[C@H](CO)O2)cc1F,IIIB,RT activity,-,0.001 µM
Nc1ccn([C@H]2CC[C@@H](CO)O2)c(=O)n1,U455,syncytia,-,0.05 µM
CO[P@](=O)(c1cc(C)cc(/C=C/C#N)c1)c1c(C(N)=O)[nH]c2ccc(Cl)cc12,BH10,-,-,0.0013 µM
Cc1cn([C@H]2C[C@H](N=[N+]=[N-])[C@@H](CO)O2)c(=O)[nH]c1=O,LAV-Bru,RT activity,7 d,<0.2 µM
CCCc1cc(=O)oc2c3c(c4c(c12)OC(C)(C)C=C4)O[C@@H](C)[C@H](C)[C@@H]3O,IIIB,RT activity,-,0.3 µM
Cc1cn([C@H]2CC[C@@H](CO)O2)c(=O)[nH]c1=O,BRU,p24,-,>100 µM
Nc1ccn([C@@H]2O[C@H](CO)C[C@@H]2F)c(=O)n1,LAV,p24 / ELISA,-,0.14 µg/mL
Cc1cn([C@H]2C[C@H](N=[N+]=[N-])[C@@H](CO)O2)c(=O)[nH]c1=O,RF,p24 / RT activity,-,0.029 µM
CC[C@@H]1O[C@@H]([C@]2(C)C[C@@H](C)[C@](O)([C@]3(C)CC[C@@H]([C@@H](O)[C@]4(O)O[C@H](C[C@@]5(O)O[C@@H]([C@@H](C)[C@H](O)C[C@@H]6O[C@H]([C@@H](C)C(=O)O)[C@@H](C)C[C@H]6C)CC[C@@H]5C)[C@@H](C)C[C@H]4C)O3)O2)CC[C@@]1(C)O,IIIB,RT activity,-,0.12 µg/mL
Cc1cn([C@H]2C[C@H](N=[N+]=[N-])[C@@H](CO)O2)c(=O)[nH]c1=O,IIIB,cytopathic effect / XTT,-,0.0026 µM
CCCc1cc(=O)oc2c3c(c4c(c12)OC(C)(C)C=C4)O[C@H](C)[C@@H](C)[C@@H]3O,IIIB,RT activity,-,0.2 µM
Cc1cn([C@H]2C[C@H](N=[N+]=[N-])[C@@H](CO)O2)c(=O)[nH]c1=O,IIIB,cytopathic effect / XTT,-,0.003 µM
CCCN(C)C(=O)Oc1nsnc1-c1c(Cl)ccc(N)c1Cl,IIIB,cytopathic effect / MTT,-,0.0069 µM
CCc1c(Sc2ccccn2)n(COCc2ccccc2)c(=O)[nH]c1=O,IIIB,cytopathic effect / XTT,-,0.02 µM
Cc1cn([C@H]2C[C@H](N=[N+]=[N-])[C@@H](CO)O2)c(=O)[nH]c1=O,IIIB,RT activity,-,0.003 µM
CCc1c(Sc2ccccn2)n(COCc2ccccc2)c(=O)[nH]c1=O,IIIB,cytopathic effect / XTT,-,0.022 µM
Nc1ccn([C@H]2CC[C@@H](CO)O2)c(=O)n1,BRU,p24,-,0.04 µM
Cc1cn([C@H]2C[C@H](N=[N+]=[N-])[C@@H](COP(=O)(O)OC[C@H]3OC(O)[C@@H](O)[C@@H](O)[C@@H]3O)O2)c(=O)[nH]c1=O,LAV-Bru,RT activity,14 d,>25 µM
CC[C@@H](C(=O)[C@@H](C)[C@@H](O)[C@H](C)[C@@H]1O[C@@H]([C@@H](CC)C(=O)O)CC[C@@H]1C)[C@H]1O[C@@]2(C=C[C@@H](O)[C@@]3(CC[C@@](C)([C@H]4CC[C@](O)(CC)[C@H](C)O4)O3)O2)[C@H](C)C[C@@H]1C,IIIB,RT activity,-,0.09 µg/mL
Nc1ccn([C@H]2CO[C@@H](CO)S2)c(=O)n1,IIIB,p24,-,0.4 µM
CO[C@@H]1C[C@@H](C[C@H]2CC[C@H](C)[C@H]([C@@H](C)C(=O)O)O2)O[C@]2(O[C@](C)([C@H]3CC[C@@](C)([C@@H]4O[C@@H]([C@H]5O[C@@](O)(CO)[C@H](C)C[C@@H]5C)C[C@@H]4C)O3)C[C@H]2C)[C@@H]1C,IIIB,RT activity,-,0.05 µg/mL
CC1=C(C(=O)Nc2ccc(Cl)c(C(=O)OC(C)C)c2)SCCO1,IIIB,cytopathic effect / XTT,-,1.7 µM

The last 2 rows once more:

SMILES,strain or isolate,method,conditions,result
CO[C@@H]1C[C@@H](C[C@H]2CC[C@H](C)[C@H]([C@@H](C)C(=O)O)O2)O[C@]2(O[C@](C)([C@H]3CC[C@@](C)([C@@H]4O[C@@H]([C@H]5O[C@@](O)(CO)[C@H](C)C[C@@H]5C)C[C@@H]4C)O3)C[C@H]2C)[C@@H]1C,IIIB,RT activity,-,0.05 µg/mL
CC1=C(C(=O)Nc2ccc(Cl)c(C(=O)OC(C)C)c2)SCCO1,IIIB,cytopathic effect / XTT,-,1.7 µM